Assays:
[1] = target: Sodium channel protein type 4 subunit alpha (Rattus norvegicus, UniProt P15390); experiment: Inhibition of rat Nav1.4 expressed in Xenopus oocytes assessed as blockage of voltage-activated sodium current at holding potential of -100 mV by two-electrode voltage-clamp electrophysiology; settings: oocyte
[2] = target: Sodium channel protein type 8 subunit alpha (Mus musculus, UniProt Q9WTU3); experiment: Inhibition of mouse Nav1.6 expressed in Xenopus oocytes assessed as blockage of voltage-activated sodium current at holding potential of -100 mV by two-electrode voltage-clamp electrophysiology; settings: oocyte

The chains behind the UniProt entries cited, without tags or fusion partners.
UniProt P15390, whole entry: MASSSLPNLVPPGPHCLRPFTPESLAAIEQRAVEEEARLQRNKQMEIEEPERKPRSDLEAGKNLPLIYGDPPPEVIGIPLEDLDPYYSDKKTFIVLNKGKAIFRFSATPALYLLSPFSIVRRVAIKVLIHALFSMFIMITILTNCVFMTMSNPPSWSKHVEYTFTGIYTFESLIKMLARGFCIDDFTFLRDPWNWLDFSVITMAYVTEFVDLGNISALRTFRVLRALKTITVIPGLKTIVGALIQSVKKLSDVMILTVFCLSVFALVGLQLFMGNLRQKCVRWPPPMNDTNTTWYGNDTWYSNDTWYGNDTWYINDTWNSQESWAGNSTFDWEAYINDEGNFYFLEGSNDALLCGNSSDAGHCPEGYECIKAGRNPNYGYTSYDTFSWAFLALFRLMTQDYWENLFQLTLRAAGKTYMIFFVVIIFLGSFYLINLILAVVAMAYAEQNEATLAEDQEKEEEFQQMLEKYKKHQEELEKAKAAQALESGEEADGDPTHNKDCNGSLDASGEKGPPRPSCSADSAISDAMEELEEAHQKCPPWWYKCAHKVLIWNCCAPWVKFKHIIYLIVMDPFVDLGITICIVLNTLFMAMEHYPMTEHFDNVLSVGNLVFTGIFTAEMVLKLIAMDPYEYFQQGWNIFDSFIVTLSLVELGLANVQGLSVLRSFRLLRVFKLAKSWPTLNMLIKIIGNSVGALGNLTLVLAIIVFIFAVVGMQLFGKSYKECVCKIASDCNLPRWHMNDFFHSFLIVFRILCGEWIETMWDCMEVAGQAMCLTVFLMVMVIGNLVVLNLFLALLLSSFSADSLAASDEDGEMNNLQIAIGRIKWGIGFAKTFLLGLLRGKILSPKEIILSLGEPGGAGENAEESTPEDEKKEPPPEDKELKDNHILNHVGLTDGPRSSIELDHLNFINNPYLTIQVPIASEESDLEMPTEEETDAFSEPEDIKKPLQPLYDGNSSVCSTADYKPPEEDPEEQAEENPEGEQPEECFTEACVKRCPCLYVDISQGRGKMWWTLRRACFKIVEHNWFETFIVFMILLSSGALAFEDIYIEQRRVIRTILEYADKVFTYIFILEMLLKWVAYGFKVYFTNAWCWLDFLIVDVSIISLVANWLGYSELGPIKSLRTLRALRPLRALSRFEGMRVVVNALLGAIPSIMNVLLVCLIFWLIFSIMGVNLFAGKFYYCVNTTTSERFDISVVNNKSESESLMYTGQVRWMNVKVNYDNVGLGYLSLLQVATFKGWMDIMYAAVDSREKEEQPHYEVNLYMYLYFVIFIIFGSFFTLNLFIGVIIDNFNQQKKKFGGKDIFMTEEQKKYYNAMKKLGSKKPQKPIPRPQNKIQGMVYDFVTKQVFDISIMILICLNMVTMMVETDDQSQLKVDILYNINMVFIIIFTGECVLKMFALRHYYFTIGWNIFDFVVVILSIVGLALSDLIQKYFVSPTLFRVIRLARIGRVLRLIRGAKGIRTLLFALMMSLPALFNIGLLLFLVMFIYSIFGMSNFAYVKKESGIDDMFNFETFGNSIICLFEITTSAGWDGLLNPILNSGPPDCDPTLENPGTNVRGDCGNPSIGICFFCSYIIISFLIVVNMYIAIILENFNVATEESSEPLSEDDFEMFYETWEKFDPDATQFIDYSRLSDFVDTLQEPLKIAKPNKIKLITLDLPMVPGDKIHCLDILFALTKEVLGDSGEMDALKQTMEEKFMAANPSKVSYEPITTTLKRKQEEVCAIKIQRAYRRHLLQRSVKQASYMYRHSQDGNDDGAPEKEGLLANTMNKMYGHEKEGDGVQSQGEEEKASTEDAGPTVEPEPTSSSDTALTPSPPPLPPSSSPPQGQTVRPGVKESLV
UniProt Q9WTU3, whole entry: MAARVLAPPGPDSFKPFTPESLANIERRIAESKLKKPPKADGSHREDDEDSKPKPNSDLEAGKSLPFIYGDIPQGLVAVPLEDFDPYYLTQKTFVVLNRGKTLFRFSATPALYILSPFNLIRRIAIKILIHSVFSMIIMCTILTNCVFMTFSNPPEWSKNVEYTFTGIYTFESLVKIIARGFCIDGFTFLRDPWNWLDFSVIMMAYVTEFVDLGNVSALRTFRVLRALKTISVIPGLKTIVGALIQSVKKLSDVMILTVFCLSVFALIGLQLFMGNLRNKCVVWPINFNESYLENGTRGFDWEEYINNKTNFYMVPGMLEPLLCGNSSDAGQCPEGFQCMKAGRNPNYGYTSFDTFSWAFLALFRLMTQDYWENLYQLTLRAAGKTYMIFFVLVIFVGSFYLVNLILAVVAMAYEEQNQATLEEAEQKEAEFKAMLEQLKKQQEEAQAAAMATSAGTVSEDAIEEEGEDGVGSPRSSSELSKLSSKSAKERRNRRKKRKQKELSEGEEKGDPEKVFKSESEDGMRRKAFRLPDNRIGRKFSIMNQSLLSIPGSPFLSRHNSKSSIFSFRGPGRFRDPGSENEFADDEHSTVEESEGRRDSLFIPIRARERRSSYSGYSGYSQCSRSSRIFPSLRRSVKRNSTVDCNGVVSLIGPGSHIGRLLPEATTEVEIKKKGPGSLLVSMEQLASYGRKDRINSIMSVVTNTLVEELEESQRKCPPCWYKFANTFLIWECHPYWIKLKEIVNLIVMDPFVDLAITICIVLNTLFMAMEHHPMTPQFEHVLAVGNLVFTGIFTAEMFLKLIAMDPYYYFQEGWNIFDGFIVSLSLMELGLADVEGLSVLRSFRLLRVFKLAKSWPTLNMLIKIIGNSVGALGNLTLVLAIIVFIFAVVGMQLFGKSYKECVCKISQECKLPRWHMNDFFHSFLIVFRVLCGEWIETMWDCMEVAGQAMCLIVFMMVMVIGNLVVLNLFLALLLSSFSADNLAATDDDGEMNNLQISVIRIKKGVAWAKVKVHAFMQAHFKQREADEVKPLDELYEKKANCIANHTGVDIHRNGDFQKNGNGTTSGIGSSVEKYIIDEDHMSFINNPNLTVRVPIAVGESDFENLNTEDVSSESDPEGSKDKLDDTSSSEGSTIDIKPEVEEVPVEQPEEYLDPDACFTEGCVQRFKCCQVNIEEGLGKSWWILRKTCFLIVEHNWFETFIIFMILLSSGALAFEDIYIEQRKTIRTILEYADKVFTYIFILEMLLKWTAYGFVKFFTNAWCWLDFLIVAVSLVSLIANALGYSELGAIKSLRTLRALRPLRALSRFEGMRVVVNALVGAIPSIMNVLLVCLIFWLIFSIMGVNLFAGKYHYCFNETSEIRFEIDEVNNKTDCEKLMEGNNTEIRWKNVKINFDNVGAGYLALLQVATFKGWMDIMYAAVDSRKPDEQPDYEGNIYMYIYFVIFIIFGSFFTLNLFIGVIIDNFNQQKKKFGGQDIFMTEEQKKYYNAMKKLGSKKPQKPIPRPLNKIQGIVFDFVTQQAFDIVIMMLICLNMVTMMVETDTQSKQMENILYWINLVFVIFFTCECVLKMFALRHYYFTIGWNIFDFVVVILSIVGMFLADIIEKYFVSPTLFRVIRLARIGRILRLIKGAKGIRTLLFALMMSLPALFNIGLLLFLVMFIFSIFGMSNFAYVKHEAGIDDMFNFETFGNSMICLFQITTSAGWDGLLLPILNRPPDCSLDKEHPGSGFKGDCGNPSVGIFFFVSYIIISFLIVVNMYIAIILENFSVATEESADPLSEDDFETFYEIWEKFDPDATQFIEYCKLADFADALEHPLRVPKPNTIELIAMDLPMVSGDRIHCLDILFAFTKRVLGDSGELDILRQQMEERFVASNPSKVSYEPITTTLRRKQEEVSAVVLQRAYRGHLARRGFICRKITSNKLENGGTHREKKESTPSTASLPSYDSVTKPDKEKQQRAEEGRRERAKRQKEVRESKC

SMILES: CC(=O)N[C@@H](CCCCN)C(=O)N[C@@H](Cc1c[nH]c2ccccc12)C(=O)N[C@H]1CC(=O)NCCCC[C@@H](C(=O)N[C@@H](CCCNC(=N)N)C(N)=O)NC(=O)[C@H](Cc2cnc[nH]2)NC(=O)[C@H](CC(=O)O)NC(=O)[C@H](CCCNC(=N)N)NC1=O
- IC50 [1]: 54.3 µM
- IC50 [2]: 39.6 µM

Reference: ChEMBL document CHEMBL1914383
